Biological target: LRRC15 isoform 2 (transcript 2), TurboGFP-tagged, in HEK293T cells (human) (UniProt Q8TF66)
Assay: flow cytometry on cells

For “SARS-CoV-2 HexaPro spike ectodomain, Alexa Fluor 647-conjugated (from UniProt P0DTC2 14-1208) (domain or fragment)”, the percent spike-positive cells was 64.5%.

— publication PMC9910744, “Fibroblast-expressed LRRC15 is a receptor for SARS-CoV-2 spike and controls antiviral and antifibrotic transcriptional programs” (2023)
